The source of these data is PubChem BioAssay AID435030 (The Scripps Research Institute Molecular Screening Center, 2010).

Structures are written as SMILES. This is a selection; strong and weak results do not stand in their true shares. Calls of active or inactive are those of the source. No stated cut-off is given here; in the data, active means inhibition above about 12%; inactive means the rest.

A short description of the assay: growth inhibition of E. coli expressing H. pylori AddAB, primary screen, AddAB inhibitor project, absorbance (AID 435030).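 Further: 0% = vehicle wells of infected cells.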 Conditions: at 11.9 µM, hits give high values.
For orientation: inhibition means the relative decrease from the control value, in per cent. On to `CC(C)(C)C(=O)NC(Sc1ccccc1)C(Cl)(Cl)Cl` (stereo unspecified), for which the inhibition was inactive: 3.07%.

As to `O=P1(Nc2nc3ccc(Cl)cc3s2)COc2ccccc2O1` (stereo unspecified), the inhibition was inactive: 4.3%.

Regarding `CCOc1ccc(C2=NCC(CBr)S2)cc1` (stereo unspecified), the inhibition was inactive: -0.93%.

With `CC(=O)Nc1ccc([As](=O)(O)O)c(O)c1`, the inhibition was inactive: 1.19%.

As to `CC(=O)Nc1ccc(Oc2c([N+](=O)[O-])cc([N+](=O)[O-])cc2[N+](=O)[O-])cc1`, the inhibition is inactive: -2.06%.

As to `CC(=O)c1ccc(N2CC2c2ccncc2)cc1` (stereo unspecified), the inhibition was inactive: 1.87%.

Take `Cc1ccccc1CN(C)C(=O)COC(=O)C(O)(c1ccccc1)c1ccccc1`: the inhibition was inactive: 2.63%.

Turning to `C[C@@H]1C=CCP(=O)(Oc2ccccc2)O1` (stereo partly specified), the inhibition was inactive: 2.92%.

Regarding `C[C@H]1OP(=O)(Oc2ccccc2)C[C@@H]2O[C@@H]21` (stereo partly specified), the inhibition is inactive: 1.43%.

Turning to `CCNC(=S)/N=C(\N)N[N+](=O)[O-]`, the inhibition is inactive: 3.73%.

Take `O=C(NC1CCS(=O)(=O)C1)NP(=S)(Oc1ccccc1)Oc1ccccc1` (stereo unspecified): the inhibition is inactive: -0.68%.

Regarding `c1ccc(-c2nn[nH]n2)c(-c2nn[nH]n2)c1`, the inhibition was inactive: 2.31%.

In the case of `Cc1ccc(NP(=O)(Oc2cccc(C)c2)Oc2cccc(C)c2)nc1`, the inhibition was inactive: 4.12%.

For `CCOC(=O)NC(Sc1ccccc1)C(Cl)(Cl)Cl` (stereo unspecified), the inhibition is inactive: 3.32%.

For the molecule `Cc1ccccc1OP(=O)(Nc1ccccn1)Oc1ccccc1C`, the inhibition was inactive: -0.25%.

Regarding `CC(NC(=O)COC(=O)C(O)(c1ccccc1)c1ccccc1)c1ccccc1` (stereo unspecified), the inhibition was inactive: 0.17%.

Regarding `CN(C)C(=O)Oc1noc2ccccc12`, the inhibition was inactive: 3.35%.

For the molecule `COC(=O)c1cc2c(s1)N=C(c1ccccc1)N(C)P2(=O)N1CCOCC1` (stereo unspecified), the inhibition is inactive: 1.92%.

Consider `CC(=O)NC(SC(=S)N(CC(C)C)CC(C)C)C(Cl)(Cl)Cl` (stereo unspecified), for which the inhibition was active: 19%.

As to `Cc1ccc(OP(=O)(Nc2ccccn2)Oc2ccc(C)cc2)cc1`, the inhibition was inactive: 3.64%.

Take `O=C(OC1CN2CCC1CC2)c1ccccc1` (stereo unspecified): the inhibition is inactive: 0.41%.

Take `CCC(=O)N1C2C3N(C(=O)CC)C1C1N(C(=O)CC)C(C(N1C(=O)CC)N3C(=O)CC)N2C(=O)CC`: the inhibition is inactive: 0.84%.

Take `O=P(Nc1nc2ccccc2s1)(c1ccccc1)c1ccccc1`: the inhibition was inactive: -0.6%.

As for `C[C@H]1OP(=O)(Oc2ccccc2)[C@H](O)[C@H](O)[C@H]1N=[N+]=[N-]` (stereo partly specified), the inhibition is inactive: 3.96%.

As to `O=P(Nc1ccccn1)(c1ccc(Br)cc1)c1ccc(Br)cc1`, the inhibition was inactive: 4.91%.

Take `CN(C)C1(CNC(=O)c2ccc(Cl)c(S(N)(=O)=O)c2)CCCCC1`: the inhibition was inactive: -1.07%.

On to `Nc1ccc([As](=O)(O)c2ccc([N+](=O)[O-])cc2)cc1`, for which the inhibition is inactive: -2.17%.

For `C(Cc1nn[nH]n1)Cc1nn[nH]n1`, the inhibition was inactive: 0.82%.

`O=C(OC1CN2CCC1CC2)c1cccc(Cl)c1` (stereo unspecified): the inhibition was inactive: 3.56%.

As to `O=[N+]([O-])c1ccc(O)c(/C=N/Nc2ccc([N+](=O)[O-])cc2[N+](=O)[O-])c1`, the inhibition is inactive: 2.17%.

Turning to `CC(=O)NC(SC(=S)N(C)C)C(Cl)(Cl)Cl` (stereo unspecified), the inhibition is inactive: -0.16%.

`O=[N+]([O-])c1ncn(CCn2cnc([N+](=O)[O-])n2)n1`: the inhibition is inactive: 0.77%.

In the case of `O=[As](O)(c1ccccc1)c1ccc(O)cc1`, the inhibition is inactive: 0.68%.

As to `c1nnnn1CCn1cnnn1`, the inhibition was inactive: 5.79%.

As for `CC(C)C(=O)NC(Sc1ccccc1)C(Cl)(Cl)Cl` (stereo unspecified), the inhibition is inactive: 0.97%.

As for `O=P(Nc1nccs1)(c1ccccc1)c1ccccc1`, the inhibition was inactive: -1.88%.

Turning to `O=[N+]([O-])c1cccc2n[nH]nc12`, the inhibition was active: 71.6%.

In the case of `CC(=O)N1C2C3N(C(C)=O)C1C1N(C(C)=O)C(C(N1C(C)=O)N3C(C)=O)N2C(C)=O`, the inhibition is inactive: 1.56%.

As to `Cc1ccc(NP(=O)(Oc2ccccc2)Oc2ccccc2)nc1`, the inhibition was inactive: 2.57%.

As for `CCc1nc2c(n1)c1c(non1O)c1c2no[n+]1[O-]`, the inhibition is inactive: 2.61%.

As for `O=[N+]([O-])c1cc([N+](=O)[O-])c(CCNc2ccccc2)c([N+](=O)[O-])c1`, the inhibition was inactive: 0.58%.

`COc1ccc(C2=NCC(CBr)S2)cc1` (stereo unspecified): the inhibition is inactive: 0.17%.

In the case of `CC(C)=N/N=C(\N)N[N+](=O)[O-]`, the inhibition is inactive: 2.07%.

Regarding `CN(C)C(=O)OCCc1n(C)cc[n+]1C`, the inhibition was inactive: 2.06%.

As for `CC1CCN(C(=O)Oc2c(Cl)cc(Cl)c3cccnc23)CC1`, the inhibition is inactive: 1.29%.

As for `Nc1ccc([As](=O)(O)c2ccc(N)cc2)cc1`, the inhibition is inactive: 1.45%.

On to `C[N+]1=C2C=CC=CC=C2SC12C([N+](=O)[O-])=CC([N+](=O)[O-])=C[C-]2[N+](=O)[O-]` (stereo unspecified), for which the inhibition is inactive: 4.49%.

As to `CCN(/C(=N/P(=O)(N1CCOCC1)N1CCOCC1)N1CCOCC1)c1ccc(OC)cc1`, the inhibition was inactive: 2.42%.

For the molecule `O=C(Nc1cc([As](=O)(O)O)ccc1O)c1ccccc1`, the inhibition is inactive: -0.08%.

On to `O=[N+]([O-])c1cccc(NC2=NCC(CBr)S2)c1` (stereo unspecified), for which the inhibition was inactive: -1.03%.

Regarding `CC(C)(C)C(=O)NC(Sc1ccncn1)C(Cl)(Cl)Cl` (stereo unspecified), the inhibition is inactive: 2.37%.

In the case of `O=[N+]([O-])c1ncn(CCn2ncnc2[N+](=O)[O-])n1`, the inhibition was inactive: -0.69%.

Regarding `CCOP(=O)(Nc1ccccc1)OCC`, the inhibition was inactive: 0%.

Turning to `Cc1cc(SC(NC(=O)c2ccc(F)cc2)C(Cl)(Cl)Cl)ncn1` (stereo unspecified), the inhibition is inactive: 1.04%.

For the molecule `Cc1ccc(NP(=O)(Oc2ccccc2F)Oc2ccccc2F)nc1`, the inhibition was inactive: 1.96%.

Regarding `CN(C(=O)Cc1ccc(Cl)c(Cl)c1)[C@H]1CCCC[C@@H]1N1CCCC1`, the inhibition is inactive: -0.08%.

With `O=C(O)c1ccccc1[As](=O)(O)O`, the inhibition is inactive: -1.73%.

Take `CC(=O)Nc1ccc([As](=O)(O)O)cc1`: the inhibition was inactive: -1.23%.

For `O=P(Nc1nc2ccc(Cl)cc2s1)(c1ccccc1)c1ccccc1`, the inhibition is inactive: 1.63%.

As for `CCN(N=Nc1nonc1N)c1nonc1N`, the inhibition is inactive: 3.18%.

As for `O=[N+]([O-])c1cc([N+](=O)[O-])c(CCN2CCOCC2)c([N+](=O)[O-])c1`, the inhibition was inactive: -1.07%.

As for `COc1ccccc1OP(=O)(Nc1ccc(C)cn1)Oc1ccccc1OC`, the inhibition is inactive: 4.24%.

In the case of `Cc1ccc(OP(=O)(Nc2nccs2)Oc2ccc(C)cc2)cc1`, the inhibition was inactive: -2.23%.

In the case of `Clc1ccc(Cl)c(NC2=NCC(CBr)S2)c1` (stereo unspecified), the inhibition was inactive: 1.88%.

For `CN1CCCC(OC(=O)C(c2ccccc2)c2ccccc2)C1` (stereo unspecified), the inhibition was inactive: 0.08%.

With `NC(=O)c1cc([N+](=O)[O-])cc([N+](=O)[O-])c1N`, the inhibition was inactive: 0.85%.

Regarding `CN(C(=O)Cc1ccc(Cl)c(Cl)c1)[C@H]1CCCC[C@H]1N1CCCC1`, the inhibition is inactive: -2.93%.

With `Cc1ccc(N/C(=N/P(=O)(N2CCOCC2)N2CCOCC2)N2CCOCC2)cc1`, the inhibition was inactive: 3.49%.

For the molecule `CC(C)CC(=O)NC(Sc1ccc(Cl)cc1)C(Cl)(Cl)Cl` (stereo unspecified), the inhibition was inactive: 3.25%.

Turning to `Nc1cc(N)c2nonc2c1[N+](=O)[O-]`, the inhibition is inactive: 2.66%.

Consider `Oc1ccccc1CNc1ccccn1`, for which the inhibition was inactive: 2.39%.

Consider `Cc1c2non([O-])c-2c(C)[n+](=O)[n+]1[O-]`, for which the inhibition was inactive: 10.6%.

Consider `O=C(NC(Sc1ccncn1)C(Cl)(Cl)Cl)c1ccccc1` (stereo unspecified), for which the inhibition is inactive: -0.26%.

`COc1ccc2nc(NP(=O)(c3ccccc3)c3ccccc3)sc2c1`: the inhibition is inactive: -2.59%.

For the molecule `COc1cc(I)ccc1[As](=O)(O)O`, the inhibition is inactive: 0.17%.

Turning to `O=C(OC1CN2CCC1CC2)C12CC3CC(CC(C3)C1)C2` (stereo unspecified), the inhibition was inactive: 2.59%.

With `Cc1cc(=O)[nH]c(N[N+](=O)[O-])n1`, the inhibition was inactive: 2.47%.

Consider `Cc1c2c(nc3ccccc13)SC(C(Cl)Cl)C2` (stereo unspecified), for which the inhibition was inactive: -0.75%.

For `COc1ccc(N/C(=N/P(=O)(N2CCOCC2)N2CCOCC2)N2CCOCC2)cc1`, the inhibition was inactive: 4.45%.

As to `Cc1ccc2nc3c(c(C)c2c1)CC(C(Cl)Cl)S3` (stereo unspecified), the inhibition was inactive: 0.9%.

For `Cc1ccc(OP(=O)(Nc2ccc([N+](=O)[O-])cn2)Oc2ccc(C)cc2)cc1`, the inhibition is inactive: -0.91%.

As for `C[As](=O)(O)c1cccc(C(=O)O)c1`, the inhibition was inactive: -0.81%.

As to `O=[As](O)(c1ccc(O)cc1)c1ccccc1O`, the inhibition is inactive: 1.18%.

As to `COc1cc(C(=O)NCC2(N3CCOCC3)CCCCC2)ccc1OCC(C)C`, the inhibition was inactive: 0.94%.

As for `CCN(CC)C(=S)SC(NC=O)C(Cl)(Cl)Cl` (stereo unspecified), the inhibition is inactive: 5.26%.

As to `CC(C)NC(=O)NP(=O)(Oc1ccccc1)Oc1ccccc1`, the inhibition was inactive: 2.22%.

In the case of `O=[N+]([O-])c1cc([N+](=O)[O-])c(-c2ccn[nH]2)s1`, the inhibition was active: 26.6%.

Turning to `CC(C)c1ccc(OP(=O)(Nc2ccccn2)Oc2ccccc2F)cc1` (stereo unspecified), the inhibition is inactive: -0.59%.

Consider `ClCCSc1nnc(-c2cccnc2)o1`, for which the inhibition is inactive: 0.9%.

Consider `Cc1cc(SC(NC(=O)c2ccccc2)C(Cl)(Cl)Cl)nc(C(C)C)n1` (stereo unspecified), for which the inhibition was inactive: 1.15%.

Regarding `CCOC(=O)Nc1ccc([As](=O)(O)O)c(O)c1`, the inhibition is inactive: 3.97%.

For the molecule `O=P(Nc1ccccn1)(c1cccc2ccccc12)c1cccc2ccccc12`, the inhibition is inactive: 1.29%.

On to `Cc1cc(SC(NC=O)C(Cl)(Cl)Cl)ncn1` (stereo unspecified), for which the inhibition is inactive: 2.75%.

`CCOC(=O)Nc1cccc([As](=O)(O)O)c1`: the inhibition was inactive: 1.4%.

On to `O=C(COc1ccccc1)OC1CN2CCC1CC2` (stereo unspecified), for which the inhibition is inactive: 0.34%.

Take `O=C(Nc1ccncc1[N+](=O)[O-])c1ccc([N+](=O)[O-])cc1[N+](=O)[O-]`: the inhibition was inactive: 1.62%.

Take `COP1(=S)c2c(C)nn(CCC#N)c2N=C(c2ccc(F)cc2)N1C` (stereo unspecified): the inhibition is inactive: 2.74%.

Turning to `CCC(C)N(CC(C)C)C(=S)SC(NC(C)=O)C(Cl)(Cl)Cl` (stereo unspecified), the inhibition is inactive: 5.92%.

`CCOC(=O)c1ccc(NC(=O)C(C)(CCl)SC)cc1` (stereo unspecified): the inhibition is inactive: 1.6%.

Consider `O=C(OC1CN2CCC1CC2)c1cccc([N+](=O)[O-])c1` (stereo unspecified), for which the inhibition was inactive: 4.48%.

For the molecule `Clc1n[nH]nc1-c1nn[nH][15n]1`, the inhibition was inactive: 0.16%.
